From ChEMBL document CHEMBL3988442, “University of Dundee, Small-Polar-MMV Screening Library” (2021).

Results are given as percent effect.
The record does not define 0% and 100%; most values in the screen are far below 50% and negative numbers occur (in some assays of this library far below -100).
The entries come from a sample that favours strong results.

Mtb cholesterol medium: 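Phenotypic screen: M. tuberculosis growth, cholesterol and DPPC medium, 4 days; the read-out is not stated. Compounds at 500 µM. Direction is inferred from retests: higher values go with more growth inhibition. Of about 18,000 compounds tested this way, about 900 (5%) reached 50% or more in at least one test.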
Mtb glucose medium: 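Whole-cell growth test on Mycobacterium tuberculosis, read after 3 days in glucose-containing 7H9 medium; the read-out is not stated. Compounds at 500 µM. Higher reads as more growth inhibition (inferred: compounds with an IC50 in retests scored well above the rest). About 18,000 compounds were tested under these conditions; 7.9% (about 1,400) showed 50% or more at least once.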

With O=C(NCc1nccs1)c1ccc(F)cc1F the screen gave Mtb cholesterol medium: 31.84%.
With Cc1cn(CCNC(=O)c2cc(CC(C)C)n[nH]2)nn1 the screen gave Mtb glucose medium: 12.21%.
With N#CCC(=O)c1ccccc1OC(F)F the screen gave Mtb glucose medium: 35.12%.
With Cc1cc(NC(=O)NCC(O)CN2CCCCC2)no1 (stereo not shown) the screen gave Mtb cholesterol medium: 1.281%.
With CCCn1nnc(NC(=O)c2ccccc2F)n1 the screen gave Mtb cholesterol medium: 62.03%; Mtb glucose medium: 67.09%.
With COc1ccccc1-c1noc(CN)n1 the screen gave Mtb cholesterol medium: -4.864%; Mtb glucose medium: 6.649%.
With CCOC(=O)C1=C(CN(C)CC)NC(=O)NC1 the screen gave Mtb cholesterol medium: -24.55%.
With COc1ccc(C(=O)N2CCCO2)cc1OC the screen gave Mtb glucose medium: 9.501%.
With Cc1cccc(C(=O)NC(C)c2nnc3n2CCC3)n1 (stereo not shown) the screen gave Mtb glucose medium: -10.25%.
With CC1CN(CCC(=O)Nc2cccnc2)CCCO1 (stereo not shown) the screen gave Mtb cholesterol medium: -4.607%; Mtb glucose medium: 2.145%.
With Cc1cc(NC2CCC(=O)N(C)C2)nc(C)n1 (stereo not shown) the screen gave Mtb cholesterol medium: -13.7%.
With C1COCC(C2CC2)N1 (stereo not shown) the screen gave Mtb cholesterol medium: -16.24%.
With O=C(CN1CCNCC1)c1ccccc1Cl the screen gave Mtb cholesterol medium: 14.01%.
With COc1ccc(-c2nc(CCN)co2)cc1 the screen gave Mtb cholesterol medium: 78.68%; Mtb glucose medium: 82.39%.
With CC(C)(C)OC(=O)Nc1ccc(NC(=O)C2CC2)cn1 the screen gave Mtb glucose medium: -1.325%.
With Cc1ccc(NC(=O)CCS(C)(=O)=O)c(CN(C)C)c1 the screen gave Mtb cholesterol medium: 4.409%.
With CCOCCOc1cc(C)ccc1CN the screen gave Mtb cholesterol medium: 21.4%; Mtb glucose medium: 50.95%.
With Cn1ccsc1=NC(=O)c1cnc(C2OCCO2)s1 the screen gave Mtb glucose medium: 20.63%.
With N#Cc1ncn(CC2CCCCO2)c1C#N (stereo not shown) the screen gave Mtb cholesterol medium: 15.6%.
With CCc1nc(C(C)N)n[nH]1 (stereo not shown) the screen gave Mtb glucose medium: 14.44%.
With CC(C)NC(=O)NCC1(N2CCOCC2)CCSC1 (stereo not shown) the screen gave Mtb glucose medium: 50.83%.
With COCCC(C)NC(=O)c1cc(O)nc2ccccc12 (stereo not shown) the screen gave Mtb cholesterol medium: -23.09%.
With CNS(=O)(=O)CC(=O)N(C)CCc1ccccc1F the screen gave Mtb glucose medium: -8.404%.
With OCCN(CCO)Cc1cc(Br)cc2cccnc12 the screen gave Mtb glucose medium: 48.43%.
With O=c1[nH]c(=O)c2ccc(Cl)cc2o1 the screen gave Mtb glucose medium: 11.22%.
With CCn1c(C(=O)N2CCOCC2C)cc2ccccc21 (stereo not shown) the screen gave Mtb cholesterol medium: 48.45%; Mtb glucose medium: 63.49%.
With CC(C)[C@H](N)C(=O)N1CCc2cccc(F)c2C1 the screen gave Mtb glucose medium: -1.625%.
With COc1ccc(Cn2cnc(N)n2)cc1 the screen gave Mtb glucose medium: 10.93%.
With CN(Cc1ccc2nonc2c1)C(=O)c1ccon1 the screen gave Mtb glucose medium: 13.68%.
With O=C(c1cc(Cl)c[nH]1)N1CCNCC1 the screen gave Mtb glucose medium: 11.56%.
With CNC(CO)c1ccccc1 (stereo not shown) the screen gave Mtb cholesterol medium: -9.98%; Mtb glucose medium: -1.956%.
With COc1cccc(CN(C)C(=O)c2cccnc2)n1 the screen gave Mtb cholesterol medium: -0.8347%; Mtb glucose medium: 19.69%.
With CCN(C(=O)Cc1csc(N2CCCC2=O)n1)C1CC1 the screen gave Mtb cholesterol medium: 11.13%.
With O=C(Cn1cccn1)Nc1ccccc1Br the screen gave Mtb glucose medium: 2.779%.
With Nc1ccnc(-c2ccc(CO)cc2)c1 the screen gave Mtb glucose medium: 12.12%.
With NCCc1nc(C2CC2)cs1 the screen gave Mtb cholesterol medium: 71.4%; Mtb glucose medium: 57.05%.
With O=C(CCc1cc(Cl)cs1)NCCN1CCOCC1 the screen gave Mtb cholesterol medium: 5.756%.

4 of the entries, repeated:

For CNC(CO)c1ccccc1 (stereo not shown) the result was Mtb cholesterol medium: -9.98%; Mtb glucose medium: -1.956%.
For N#CCC(=O)c1ccccc1OC(F)F the result was Mtb glucose medium: 35.12%.
For Cc1cccc(C(=O)NC(C)c2nnc3n2CCC3)n1 (stereo not shown) the result was Mtb glucose medium: -10.25%.
For O=C(Cn1cccn1)Nc1ccccc1Br the result was Mtb glucose medium: 2.779%.